Compound potency records, mixed from different reports. Data source: NIAID ChemDB in PubChem.

All rows: tests in culture; agent: HIV-1

Rows are shuffled and stem from different studies. An empty or dashed field is not shown. ECn: concentration that inhibits the pathogen or its effect by n%.

SMILES | strain or isolate | read-out | cells | changes | read by | value
O=C1CO[C@](C#Cc2ccoc2)(C(F)(F)F)c2cc(Cl)ccc2N1 | RF | EC50 | MT-2 |  |  | <0.0475 µM
CCCCC1(CCc2cccc(NS(=O)(=O)c3ccc(F)cc3)c2)COC(=O)C(C(CC)c2cccc(NS(=O)(=O)c3ccc(F)cc3)c2)=C1O | IIIB | EC50 | MT-4 |  |  | 16.3 µM
COc1ccc(S(=O)(=O)N(CC2CCCC2)C[C@@H](O)CN(CCc2ccccc2)C(C)=O)cc1 | IIIB | EC50 | CEM |  | p24 | <1 µM
Nc1nc(=O)n([C@@H]2S[C@H](CO)[C@H]2CO)cc1Cl | xxBRU | EC90 | PBMC |  | RT activity | >100 µM
COc1ccccc1N1C(=O)/C(=C/c2ccc(-c3cccc(C(=O)O)c3)o2)SC1=S | IIIB | EC50 | MT-2 |  | p24 | 2.65 µM
CCCCSc1nc(C2(c3c(F)cccc3F)CC2)c(C)c(=O)[nH]1 | NL4-3 | EC50 | MT-4 |  | MTT | 0.0105 µM
O=C(CCCC[C@@H]1SC[C@@H]2NC(=O)N[C@@H]21)NCCOCCOCCOc1cc(C2(C(F)(F)F)N=N2)ccc1C(=O)NCCOCCOCCNC(=O)c1cc(C(=O)c2ccc3ccccc3c2)n2ccc(C(=O)c3ccccc3)cc12 |  | EC50 | H9 |  | p24 | 34.6 µM
Cc1cn([C@H]2C[C@@H](OCCP(=O)(O)O)CO2)c(=O)[nH]c1=O |  | EC50 | MT-4 |  |  | 140 µM
COc1ccc(N2C(=O)/C(=C/c3ccc(-c4ccc(Cl)c(C(=O)O)c4)o3)SC2=S)cc1 | IIIB | EC50 | MT-2 |  | p24 | 3.047 µM
C[C@H]1O[C@](C#CC2CC2)(C(F)(F)F)c2cc(Cl)ccc2NC1=O | RF | EC50 | MT-2 |  |  | <0.007 µM
CCOC(=O)c1cc(C(=O)c2ccc3ccccc3c2)n2ccc(C(=O)c3ccccc3)cc12 |  | EC50 | H9 |  | p24 | 36.1 µM
O=C1CO[C@](C#Cc2ccccc2)(C(F)(F)F)c2cc(Cl)ccc2N1 |  | EC50 |  | RT-K103N |  | <4.1 µM
COc1ccc(S(=O)(=O)N(CC(C)C)C[C@@H](O)CCN(CC2CCCC2)S(=O)(=O)C2CCCC2)cc1 | IIIB | EC90 | CEM |  | p24 | 1 µM
COc1ccc(N(C)C(=O)[C@H](Cc2cc(F)cc(F)c2)NC(=O)COc2nc3ccccc3n(CC(=O)N[C@@H](Cc3cc(F)cc(F)c3)C(=O)N(C)c3ccc(OC)cc3)c2=O)cc1 | NL4-3 | EC50 | MT-2 |  | luciferase | 0.12 µM
CN1CCN(CC(O)C2OC(C)(C)OC2c2cnn(-c3ccccc3)n2)CC1 | RF | EC50 | CEM + CEM-SS |  | cytopathic effect / MTS | >100 µM
CC[C@@H]1O[C@](C#CC2CC2)(C(F)(F)F)c2cc(F)ccc2NC1=O | RF | EC50 | MT-2 |  |  | <0.0053 µM
CSCCSc1nc(C2(c3c(F)cccc3F)CC2)c(C)c(=O)[nH]1 | NL4-3 | EC50 | MT-4 |  | MTT | 0.00575 µM
COc1ccc(N(C)C(=O)[C@H](Cc2ccccc2)NC(=O)Cn2c(=O)n(CC(=O)N[C@@H](Cc3ccccc3)C(=O)N(C)c3ccc(OC)cc3)c3cc(Cl)ccc32)cc1 | NL4-3 | EC50 | MT-2 |  | luciferase | 0.08 µM
O=C(O)c1cccc(-c2ccc(/C=C3\SC(=S)N(Cc4ccco4)C3=O)o2)c1 | IIIB | EC50 | MT-2 |  | p24 | 26.68 µM
C=CCN(C(=O)[C@H](Cc1cc(F)cc(F)c1)NC(=O)CCC(=O)N[C@@H](Cc1cc(F)cc(F)c1)C(=O)N(CC=C)c1ccc(OC)cc1)c1ccc(OC)cc1 | NL4-3 | EC50 | MT-2 |  | luciferase | 7.66 µM
CCCCC1(CCc2cccc(NS(=O)(=O)c3ccc(C(F)(F)F)cn3)c2)COC(=O)C(C(CC)c2cccc(NS(=O)(=O)c3ccc(C(F)(F)F)cn3)c2)=C1O | IIIB | EC50 | MT-4 |  |  | 0.6 µM
O=c1ccn([C@@H]2S[C@H](CO)[C@H]2CO)c(=O)[nH]1 | xxBRU | EC90 | PBMC |  | RT activity | 23.1 µM
CCCCC1(CCc2cccc(NS(=O)(=O)c3ccc(OC)cc3)c2)COC(=O)C(C(CC)c2cccc(NS(=O)(=O)c3ccc(OC)cc3)c2)=C1O | IIIB | EC50 | MT-4 |  |  | >29.9 µM
CC[C@@H]1O[C@](/C=C/C2CC2)(C(F)(F)F)c2cc(F)ccc2NC1=O |  | EC50 |  | RT-K103N |  | <0.07 µM
COC(=O)[C@H](C)NP(=O)(OC[C@@H]1C=C[C@H](n2cc(C)c(=O)[nH]c2=O)O1)Oc1ccccc1 | IIIB | EC50 | CEM + CEM/0 |  |  | 0.085 µM
CN(C(=O)[C@H](Cc1ccccc1)Nc1nccc(-c2ccnc(N[C@@H](Cc3ccccc3)C(=O)N(C)c3ccc4scnc4c3)n2)n1)c1ccc2scnc2c1 | NL4-3 | EC50 | MT-2 |  | luciferase | 0.09 µM
COc1cc(C2(C(F)(F)F)N=N2)ccc1C(=O)NCCOCCOCCNC(=O)c1cc(C(=O)c2ccc3ccccc3c2)n2ccc(C(=O)c3ccccc3)cc12 |  | EC50 | H9 |  | p24 | 14.9 µM
COc1ccc(S(=O)(=O)N(CC(C)C)C[C@@H](O)CCN(CC2CCCC2)S(=O)(=O)Cc2cccc3n[nH]nc23)cc1 | IIIB | EC50 | CEM |  | p24 | <1 µM
CCC#C[C@]1(C(F)(F)F)OCC(=O)Nc2ccc(Cl)cc21 | RF | EC50 | MT-2 |  |  | <0.0091 µM
COc1ccc(N(C)C(=O)[C@H](Cc2cc(F)cc(F)c2)NC(=O)c2ccc(F)c(C(=O)N[C@@H](Cc3cc(F)cc(F)c3)C(=O)N(C)c3ccc(OC)c(F)c3)c2)cc1F | NL4-3 | EC50 | MT-2 |  | luciferase | 0.18 µM
OB(O)CCCCn1cnc2c(Cl)ncnc21 | IIIB | EC50 | CEM + CEM-SS |  | plaque count | 7.7 µM
CCCOc1nc(N)nc2c1ncn2[C@@H]1C=C[C@H](CO)C1 |  | EC50 | CEM |  |  | 2.2 µM
O=C(N[C@@H](Cc1ccccc1)C(=O)C(F)(F)CN(Cc1ccccc1)S(=O)(=O)c1ccccc1)OC1COCOC1 | IIIB | EC90 | CEM |  | p24 | 1 µM
CCN(C(=O)[C@H](Cc1cc(F)cc(F)c1)NC(=O)CN1c2ccccc2N(CC(=O)N[C@@H](Cc2cc(F)cc(F)c2)C(=O)N(CC)c2ccc3oc(=O)n(Cc4ccccc4)c3c2)S1(=O)=O)c1ccc2oc(=O)n(Cc3ccccc3)c2c1 | NL4-3 | EC50 | MT-2 |  | luciferase | 1.54 µM
COc1ccc(S(=O)(=O)N(CC(O)CN(CCc2ccccc2)C(=O)[C@@H](NC(=O)OCc2ccccc2)C(C)C)CC2CCCC2)cc1 | IIIB | EC50 | CEM |  | p24 | <0.1 µM
CC1(C)OC(c2cnn(-c3ccccc3)n2)C(C2CO2)O1 | RF | EC50 | CEM + CEM-SS |  | cytopathic effect / MTS | >100 µM
Nc1nc2c(ncn2[C@@H]2S[C@H](CO)[C@H]2CO)c(=O)[nH]1 | xxBRU | EC90 | PBMC |  | RT activity | >100 µM
CCOC(=O)c1cc(C(=O)c2ccc3ccccc3c2)n2ccc(C(=O)NCc3ccccn3)cc12 |  | EC50 | H9 |  | p24 | 82 µM
COc1ccccc1N1C(=O)S/C(=C\c2ccc(-c3cccc(C(=O)O)c3)o2)C1=O | IIIB | EC50 | MT-2 |  | cytopathic effect | 1.138 µM
Nc1ncnc2c1ncn2[C@@H]1OC[C@H](OCCP(=O)(O)O)[C@H]1O |  | EC50 | MT-4 |  |  | >250 µM
C=CCN(C(=O)[C@H](Cc1cc(F)cc(F)c1)NC(=O)NS(=O)(=O)N[C@@H](Cc1cc(F)cc(F)c1)C(=O)N(CC=C)c1ccc2nccnc2c1)c1ccc2nccnc2c1 | NL4-3 | EC50 | MT-2 |  | luciferase | 8.21 µM
COC1CCC(S(=O)(=O)N(CC2CCCC2)C[C@@H](O)CN(CCc2ccccc2)C(=O)c2ccccc2)CO1 | IIIB | EC90 | CEM |  | p24 | 1 µM
CN(C(=O)[C@H](Cc1cc(F)cc(F)c1)NC(=O)NS(=O)(=O)N[C@@H](Cc1cc(F)cc(F)c1)C(=O)N(C)c1ccc2scnc2c1)c1ccc2scnc2c1 | NL4-3 | EC50 | MT-2 |  | luciferase | 0.03 µM
CCC1CCCCN1CC(O)C1OC(C)(C)OC1c1cnn(-c2ccccc2)n1 | IIIB | EC50 | CEM + CEM-SS |  | cytopathic effect / MTS | >100 µM
Cc1c(C(=O)O)cccc1-c1ccc(/C=C2\SC(=S)N(c3cccc(C(F)(F)F)c3)C2=O)o1 | IIIB | EC50 | MT-2 |  | p24 | 1.265 µM

For reference, 3 entries again:

SMILES | strain or isolate | read-out | cells | changes | read by | value
O=C(N[C@@H](Cc1ccccc1)C(=O)C(F)(F)CN(Cc1ccccc1)S(=O)(=O)c1ccccc1)OC1COCOC1 | IIIB | EC90 | CEM |  | p24 | 1 µM
C=CCN(C(=O)[C@H](Cc1cc(F)cc(F)c1)NC(=O)NS(=O)(=O)N[C@@H](Cc1cc(F)cc(F)c1)C(=O)N(CC=C)c1ccc2nccnc2c1)c1ccc2nccnc2c1 | NL4-3 | EC50 | MT-2 |  | luciferase | 8.21 µM
O=C1CO[C@](C#Cc2ccoc2)(C(F)(F)F)c2cc(Cl)ccc2N1 | RF | EC50 | MT-2 |  |  | <0.0475 µM